Patent publication US20110150771A1

Target: E protein of wild type Dengue-2 virus 16681 (Dengue virus type 2, strain 16681) (UniProt P29990)
Assay: cell-based or functional assay
Conditions: scale: greatest antibody dilution that decreased plaques by at least 50%

Substance | PRNT50 Titer
DENV-2 E protein-specific monoclonal antibody (MAb3H5) | > 2560
WNV E protein-specific monoclonal antibody (MAb3.67G) | < 1280
